Experimental findings from US20150353852A1, “Microorganisms for Producing Volatile Organic Compounds” (priority 2010, published 2015) are described below.

Molecules are shown by their SMILES. Where “and” joins values, the source holds several entries; their conditions need not be identical. Equal values may be shown once.

The data set in a line: SPME-GC/MS analysis of fungal VOCs (composition). Particulars: for Relative Area: VOCs produced by F1-9, a Nodulisporium sp. isolate, GC/MS; for Percent: share of total relative area of VOCs produced by F1-9, a Nodulisporium sp. isolate.

As to `C=CC1(C)CCCC(=C)CC1C=C(C)C` (stereo not drawn), the “Relative Area” value worked out at 236.25 ng and the Percent was 0.67%.

On to `C=C1C=C2[C@@H](CC1)[C@@H](C)CCCC2(C)C` [10s,11s-Himachala-3(12),4-diene], for which the “Relative Area” value turned out to be 84.09 ng and the Percent is 0.24%.

For the compound `CC(C)CCO` [1-Butanol, 3-methyl-], the “Relative Area” value came to 1999.66 ng and the Percent worked out at 5.67%.

`OCCc1ccccc1` [Phenylethyl Alcohol]: the “Relative Area” value is 70.38 ng and the Percent stood at 0.20%.

`CC12CCC(CC1)C(C)(C)O2` [cineole]: the “Relative Area” value is given as 6153.56 ng and the Percent was 17.45%.

Consider `CC1=CCC[C@]2(C)CCC(=C(C)C)C[C@@H]12` (relative stereo), for which the “Relative Area” value is 1516.84 ng and the Percent turned out to be 4.30%.

As to `CC1=CC[C@@H]2[C@@H]3[C@H]1[C@@]2(C)CCCC3(C)C`, the “Relative Area” value was determined as 257.54 ng and the Percent is 0.73%.

Take `C=C1CCC(C(C)C)C2C=C(C)CCC12` (single isomer, unassigned; (+)) [(+)-Epi-bicyclosesquiphellandrene]: the “Relative Area” value worked out at 89.86 ng and the Percent was found to be 0.25%.

With `C=C1CCCC(C)(C)[C@H]2C=C(C)CC[C@@H]12` (relative stereo), the “Relative Area” value worked out at 276.47 ng and the Percent turned out to be 0.78%.

For `CC1=CCC2C(=C1)C(C)(C)CCCC2C` (stereo not drawn) [Himachala-2,4-diene], the “Relative Area” value amounted to 122.17 ng and the Percent came to 0.35%.

As to `C=C1CCC[C@]2(C)CCC(=C(C)C)C[C@@H]12` (relative stereo), the “Relative Area” value is listed as 264.82 ng and the Percent was found to be 0.75%.

In the case of `CCC(C)CC(C)=O` (stereo not drawn) [2-Hexanone, 4-methyl-], the “Relative Area” value is reported as 132.80 ng and the Percent came out at 0.38%.

Regarding `CCC(=O)C(C)C(CC)CC` (stereo not drawn) [3-Heptanone, 5-ethyl-4-methyl-], the “Relative Area” value was 313.67 ng and the Percent was determined as 0.89%.

On to `CC1=CC[C@]2(C)CCCC(C)(C)[C@@]23C[C@@H]13` [Thujopsene], for which the “Relative Area” value is 155.35 ng and the Percent is 0.44%.

Consider `CC1=CC2=C(C(C)C)CC[C@@H](C)[C@@H]2CC1` [Epizonarene], for which the “Relative Area” value turned out to be 651.67 ng and the Percent came to 1.85%.

Consider `CC(C)CO` [1-Propanol, 2-methyl-], for which the “Relative Area” value amounted to 79.46 ng and the Percent is listed as 0.23%.

As to `CC1=C[C@@H]2[C@H](CC1)C(C)=CCCC2(C)C`, the “Relative Area” value is 146.86 ng and the Percent was determined as 0.42%.

`C=C1CC/C=C(/C)CC[C@@H]2[C@@H]1CC2(C)C` [Caryophyllene]: the “Relative Area” value is 178.91 ng and the Percent turned out to be 0.51%.

Regarding `C/C1=C\CC/C(C)=C/CC(C)(C)/C=C/C1` [α-Caryophyllene], the “Relative Area” value is 139.68 ng and the Percent is given as 0.40%.

As to `C=C1CCCC(C)(C)C12CC=C(C)CC2` (stereo not drawn), the “Relative Area” value worked out at 234.11 ng and the Percent is 0.66%.

On to `CC1=CC[C@@]23C[C@@H]1C(C)(C)[C@@H]2CC[C@H]3C`, for which the “Relative Area” value came to 339.30 ng and the Percent turned out to be 0.96%.

Consider `C=C(C)[C@@H]1CCC(C)=C2CC[C@H](C)[C@@H]2C1`, for which the Percent was 2.50% and 11.50%.

Regarding `C=C(C)[C@H]1CC=C(C)CC1` [D-Limonene], the “Relative Area” value is 85.70 ng and the Percent turned out to be 0.24%.
